Results of unrelated studies side by side (data: NIAID ChemDB).

All rows: whole-cell or culture tests; agent: Mycobacterium avium

ECn is the concentration giving n% inhibition of infection, replication or growth. A number after MIC or MFC names an inhibition level or a share of isolates. "inactive" is the filed call at that dose; no cut-off is given. a–b is a range or a potency band. Inhibition is in % at the dose shown (toxicity tests: loss of growth or viability). Conditions beyond the fields shown may differ between rows. Blank or dashed fields: not listed here.

structure	strain	setting	read-out	read by	dose	result
CO[C@H]1/C=C/O[C@@]2(C)Oc3c(C)c(O)c4c(O)c(c5c(c4c3C2=O)NC2(CCN(CC(C)C)CC2)N=5)=NC(=O)/C(C)=C\C=C\[C@H](C)[C@H](O)[C@@H](C)[C@@H](O)[C@@H](C)[C@H](OC(C)=O)[C@@H]1C	9 isolates (HIV+)		MIC90			2 µg/mL
CN[C@@H]1[C@H](O[C@H]2[C@H](O[C@H]3[C@H](O)[C@@H](O)[C@H](N=C(N)N)[C@@H](O)[C@@H]3N=C(N)N)O[C@@H](C)[C@]2(O)C=O)O[C@@H](CO)[C@H](O)[C@H]1O	1435-C clarithromycin-resistant		MIC			8 µg/mL
CC[C@H]1OC(=O)[C@H](C)[C@@H](O[C@H]2C[C@@](C)(OC)[C@@H](O)[C@H](C)O2)[C@H](C)[C@@H](O[C@@H]2O[C@H](C)C[C@H](N(C)C)[C@H]2O)[C@](C)(O)C[C@@H](C)[C@@H]2N[C@@H](COCCOC)O[C@H]([C@H]2C)[C@]1(C)O	30 strains		Median MIC			4 µg/mL
COc1nc2ccc(Br)cc2cc1[C@@H](c1ccccc1)[C@@](O)(CCN(C)C)c1cccc2ccccc12			MIC99			0.01 µg/mL
CNC(=O)Nc1ccc(S(=O)(=O)Nc2cc(C)on2)cc1	330/88	14 d	MIC100	broth dilution / absorbance		62.5 µM
CO[C@H]1/C=C/O[C@@]2(C)Oc3c(C)c(O)c4c(=O)c(c5oc6cc(N7CCN(CC(C)C)CC7)cc(=O)c6nc5c4c3=C2O)NC(=O)/C(C)=C\C=C\[C@H](C)[C@H](O)[C@@H](C)[C@@H](O)[C@@H](C)[C@H](OC(C)=O)[C@@H]1C	3010		MBC			0.25 µg/mL
NNC(=O)c1ccncc1	330/88	14 d	MIC100	broth dilution / absorbance		>250 µM
CCn1cc(C(=O)O)c(=O)c2cc(F)c(N3CCNCC3)cc21	14 strains		MIC90			32 µg/mL
Cc1cc(NS(=O)(=O)c2ccc(NC(=O)N3CCC3)cc2)no1	330/88	21 d	MIC100	broth dilution / absorbance		125 µM
O=C(O)c1cn(C2CC2)c2cc(N3CCNCC3)c(F)cc2c1=O			EC50			380 µg/mL
CC1CN(c2cc3c(cc2F)c(=O)c(C(=O)O)cn3-c2ccc(F)cc2F)CCN1	22 strains		MIC50			2 µg/mL
Cc1cc(C2CCCC2)nc2c(C3CCCC3)cccc12			inhibition		6.25 µg/mL	inactive
CC(=O)O[C@H]1C[C@@]2(C)[C@@H](C[C@@H](O)[C@H]3[C@@]4(C)CC[C@@H](O)[C@@H](C)[C@@H]4CC[C@@]32C)/C1=C(\CCC=C(C)C)C(=O)O	22 strains		MIC50			32 µg/mL
CCn1cc(C(=O)O)c(=O)c2cc(F)c(-n3cccc3)cc21		pH 6.8	inhibition		3 µg/mL	60%
CNC(C)C1CCN(c2c(F)c(N)c3c(=O)c(C(=O)O)cn(C4CC4)c3c2OC)C1	14 strains		MIC90			>32 µg/mL
CO[C@H]1/C=C/O[C@@]2(C)Oc3c(C)c(O)c4c(O)c(c(N5CCN(Cc6c(C)cc(C)cc6C)CC5)c(O)c4c3C2=O)NC(=O)/C(C)=C\C=C\[C@H](C)[C@H](O)[C@@H](C)[C@@H](O)[C@@H](C)[C@H](OC(C)=O)[C@@H]1C	50 strains		MIC50			0.06 µg/mL
CO[C@H]1/C=C/O[C@@]2(C)Oc3c(C)c(O)c4c(O)c(c(/C=N/N5CCN(C)CC5)c(O)c4c3C2=O)NC(=O)/C(C)=C\C=C\[C@H](C)[C@H](O)[C@@H](C)[C@@H](O)[C@@H](C)[C@H](OC(C)=O)[C@@H]1C			EC50	resazurin		>200 µg/mL
Cc1cc(NS(=O)(=O)c2ccc(NC(=O)Nc3ccc(S(=O)(=O)Nc4cc(C)on4)cc3)cc2)no1	330/88	21 d	MIC100	broth dilution / absorbance		62.5 µM
CO[C@H]1/C=C/O[C@@]2(C)Oc3c(C)c(O)c4c(O)c(c(/C=N/N5CCN(C)CC5)c(O)c4c3C2=O)NC(=O)/C(C)=C\C=C\[C@H](C)[C@H](O)[C@@H](C)[C@@H](O)[C@@H](C)[C@H](OC(C)=O)[C@@H]1C	3090-C clarithromycin-resistant		MIC			2 µg/mL
CCn1cc(C(=O)O)c(=O)c2cc(F)c(N3CCS(=O)CC3)c(F)c21	14 strains		MIC90			16 µg/mL
C[C@@H]1CN(c2c(F)c(N)c3c(=O)c(C(=O)O)cn(C4CC4)c3c2F)C[C@H](C)N1			MBC			4 µg/mL
CC[C@@H](CO)NCCN[C@@H](CC)CO	Clinical strains		MIC90			16 µg/mL
CC[C@H]1OC(=O)[C@H](C)[C@@H](O[C@H]2C[C@@](C)(OC)[C@@H](O)[C@H](C)O2)[C@H](C)[C@@H](O[C@@H]2O[C@H](C)C[C@H](N(C)C)[C@H]2O)[C@](C)(O)C[C@@H](C)CN(C)[C@H](C)[C@@H](O)[C@]1(C)O	3090		MIC			8 µg/mL
CC[C@H]1OC(=O)[C@H](C)[C@@H](O[C@H]2C[C@@](C)(OC)[C@@H](O)[C@H](C)O2)[C@H](C)[C@@H](O[C@@H]2O[C@H](C)C[C@H](N(C)C)[C@H]2O)[C@](C)(OC)C[C@@H](C)C(=O)[C@H](C)[C@@H](O)[C@]1(C)O	Reference strains		MIC90			16 µg/mL
O=C(O)c1cn(C2CC2)c2c(F)c(N3CCN4CCC3C4)c(F)cc2c1=O	14 strains		MIC90			4 µg/mL
CCn1cc(C(=O)O)c(=O)c2cc(F)c(N3CCNCC3)nc21	22 strains		MIC50			32 µg/mL
C=C[C@]1(C)C=C2[C@H](O)C[C@@H]3C(C)(CCC[C@@]3(C)CO)[C@H]2CC1	ITM1794		inhibition		100 µg/mL	inactive
CCn1cc(C(=O)O)c(=O)c2cc(F)c(N3CCNCC3)cc21	63 strains		MIC50			16 µg/mL
NNC(=O)c1ccncc1	Reference strains		MIC90			>16 µg/mL
CCCCCCCNC(=O)Nc1ccc(S(=O)(=O)Nc2cc(C)on2)cc1	330/88	14 d	MIC100	broth dilution / absorbance		32 µM
Nc1ccc(S(=O)(=O)Nc2nccs2)cc1			EC50			12.5–25 µg/mL
CCNC(C)C1CCN(c2c(F)cc3c(=O)c(C(=O)O)cn(C4CC4)c3c2OC)C1	14 strains		MIC90			8 µg/mL
CCNCC1CCN(c2c(F)cc3c(=O)c(C(=O)O)cn(CC)c3c2F)C1	22 strains		MIC50			64 µg/mL
CC(C)N=c1cc2n(-c3ccc(Cl)cc3)c3ccccc3nc-2cc1Nc1ccc(Cl)cc1	3090-C clarithromycin-resistant		MIC			0.12 µg/mL
CC[C@H]1OC(=O)[C@H](C)[C@@H](O[C@H]2C[C@@](C)(OC)[C@@H](O)[C@H](C)O2)[C@H](C)[C@@H](O[C@@H]2O[C@H](C)C[C@H](N(C)C)[C@H]2O)[C@](C)(O)C[C@@H](C)C(=O)[C@H](C)[C@@H](O)[C@]1(C)O	Reference strains		MIC90			>16 µg/mL